Experimental data as given in article PMC6049025 (The Journal of Infectious Diseases, 2018).

T1: recombinant DC-SIGN extracellular domain (human, UniProt Q9NNX6 59-404)
T1 sequence: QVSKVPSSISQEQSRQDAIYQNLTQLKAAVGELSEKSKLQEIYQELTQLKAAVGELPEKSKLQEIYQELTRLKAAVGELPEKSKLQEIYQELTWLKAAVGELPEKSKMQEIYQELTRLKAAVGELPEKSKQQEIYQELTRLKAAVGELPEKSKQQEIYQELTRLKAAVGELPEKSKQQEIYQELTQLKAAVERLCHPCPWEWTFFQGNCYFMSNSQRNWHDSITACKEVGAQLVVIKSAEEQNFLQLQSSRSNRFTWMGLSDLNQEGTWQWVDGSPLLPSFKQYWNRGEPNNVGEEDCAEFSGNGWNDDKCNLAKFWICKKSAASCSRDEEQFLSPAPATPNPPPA

B1: PNGase F-treated recombinant HCMV gB (natural protein)
chain: not shown
modifications: N-glycans removed with peptide-N-glycosidase F (the paper calls the digestion incomplete in regular conditions)
B2: mannosidase-treated recombinant HCMV gB (natural protein)
chain: not shown
modifications: terminal mannose residues removed with α(1-2,3,6)-mannosidase

Biological target: T1, recombinant DC-SIGN extracellular domain
Assay: SPR

Binder | Kd
B1 | 0.23 nM
B2 | 0.149 nM
